Compound potency records, mixed from different reports. Data source: NIAID ChemDB in PubChem.

All rows: toxicity to cultured cells; read-out: CC50

CCn is the concentration with n% toxicity to the cells. An empty or dashed field is not shown. Conditions beyond the fields shown may differ between rows.

| compound | cell line | read by | value |
|---|---|---|---|
| COCC(=O)NC(CCSC[C@H]1O[C@@H](n2ccc3c(N)ncnc32)[C@H](O)[C@@H]1O)C(=O)O | PRK/E6SM |  | 400 µg/mL |
| C=C[C@@](C)(Cl)[C@@H](Br)/C=C/[C@](C)(Cl)CBr | KB |  | >20 µg/mL |
| O=C(O)/C=C/c1ccc(O)c(O)c1 | BCC-1/KMC |  | 10293 µg/mL |
| CN1C=N[C@H](C(=O)O)C[C@]1(C)COC(=O)c1ccc[nH]1 | KB |  | >20 µg/mL |
| Nc1ncnc2c1ccn2[C@@H]1O[C@H](CSCCC(NC(=O)C(F)(F)F)C(=O)O)[C@@H](O)[C@H]1O | PRK/E6SM |  | 400 µg/mL |
| O=c1cc(-c2ccc(O)c(O)c2)oc2cc(O)cc(O)c12 | BCC-1/KMC |  | 23.1 µg/mL |
| COC(=O)c1ccc(C(=O)NC2N=C(c3ccccc3)c3ccccc3NC2=O)c(OC)c1 | HEP-2 |  | 9.2 µM |
| O=c1[nH]c(=O)n([C@H]2C[C@H](O)[C@@H](CO)O2)cc1C12B3B4B5B6B(B3B1B42)B1B5C61 | CFU-GM |  | 25.6 µM |
| CC1=CC2=C(C(C)C)C(O)C(=O)/C(=C\N[C@H](CC(C)C)C(=O)O)C2C(O)=C1c1c(C)cc2c(C(C)C)c(O)c(O)c(C=N[C@@H](CC(C)C)C(=O)O)c2c1O.[Na+].[Na+] | GHOST X4/R5 | MTT | 43.66 µM |
| Nc1nc(=O)n([C@@H]2O[C@H](CO)[C@@H](O)[C@@H]2F)cc1I | WI-38 |  | 4 µM |
| Nc1nc(=O)n([C@@H]2CS[C@H](CO)O2)cc1F | CFU-GM |  | 50 µM |
| Nc1nccc2c1ncn2[C@@H]1O[C@H](CO)[C@@H](O)[C@H]1O | PRK/E6SM |  | 400 µg/mL |
| CC1=CC2=C(C(C)C)C(O)C(=O)/C(=C\N[C@H](C)C(=O)O)C2C(O)=C1c1c(C)cc2c(C(C)C)c(O)c(O)c(C=N[C@@H](C)C(=O)O)c2c1O.[Na+].[Na+] | GHOST X4/R5 | MTT | 63.46 µM |
| Nc1ncnc2c1ccn2[C@@H]1O[C@H](CO)[C@@H](O)[C@H]1O | HEF |  | <0.4 µg/mL |
| O=C(O)/C=C/c1ccc(O)cc1 | BCC-1/KMC |  | 489 µg/mL |
| O=[N+]([O-])c1cc(Cl)c(Cl)cc1[N+](=O)[O-] | E6SM |  | 4 µg/mL |
| CCOc1ccc(C(C)=O)cc1C(=O)N[C@H]1N=C(c2ccccc2)c2ccccc2NC1=O | HEP-2 |  | 1.2 µM |
| O=C1NCc2c1c1c3ccccc3[nH]c1c1[nH]c3ccccc3c21 | Akata |  | 3.14 µM |
| CCCOc1ccccc1C(=O)NC1N=C(c2ccccc2)c2ccccc2NC1=O | HEP-2 |  | 8.3 µM |
| COc1cc(C(=O)O)ccc1O | BCC-1/KMC |  | 1338 µg/mL |
| O[C@H]1[C@@H](O)COC(n2cnc3cc(Cl)c(Cl)cc32)[C@@H]1O | E6SM |  | >400 µg/mL |
| Nc1ccn([C@@H]2C[C@@H](O)[C@H](CO)O2)c(=O)n1 | 2.2.15 |  | >2000 µM |
| CC(C)[Si]1(C(C)C)OC[C@H]2O[C@@H](n3cnc4cc(Cl)c(Cl)cc43)[C@@H](O)[C@H]2O[Si](C(C)C)(C(C)C)O1 | E6SM |  | 200 µg/mL |
| CC1=C[C@@H]2[C@@H](CC1)[C@@](C)(S)CC[C@H]2C(C)C | KB |  | >20 µg/mL |
| Cc1cn([C@@H]2C[C@@H](O)[C@H](CO)O2)c(=O)[nH]c1=O | MA-104 |  | >100 µM |
| Nc1nc(N)c2ncn(C[C@@H](CO)OCP(=O)(O)O)c2n1 | Primary duck hepatocytes |  | >100 µM |
| CCOC(=O)C(CCSC[C@H]1O[C@@H](n2ccc3c(N)ncnc32)[C@H](O)[C@@H]1O)NC(C)=O | PRK/E6SM |  | 400 µg/mL |
| Cc1cc2c(C(C)C)c(O)c(O)c(C=O)c2c(O)c1-c1c(C)cc2c(C(C)C)c(O)c(O)c(C=O)c2c1O | GHOST | MTT | 6.85 µM |
| COc1ccc(CNC(=O)NC2N=C(c3ccccc3)c3ccccc3NC2=O)cc1 | HEP-2 |  | 4 µM |
| [N-]=[N+]=N[C@H]1[C@@H](O)[C@H](n2cnc3c(N)nccc32)O[C@@H]1CO | HEF |  | 26 µg/mL |
| OC[C@H]1O[C@@H](n2cnc3cc(Cl)c(Cl)cc32)[C@H](O)[C@@H]1O | E6SM |  | 40 µg/mL |
| COC(=O)C(N)CCSC[C@H]1O[C@@H](n2ccc3c(N)ncnc32)[C@H](O)[C@@H]1O | PRK/E6SM |  | >400 µg/mL |
| COC(=O)[C@]1(O)C[C@@H]2O[C@@]1(C)n1c3ccccc3c3c4c(c5c6ccccc6n2c5c31)C(=O)NC4 | Akata |  | 0.18 µM |
| CC1=NN=C(C)C2C=C(Cl)C(Cl)=C12 | MOUSE EMT6 |  | 16 µM |
| CC[C@@H](C)[C@@H](N/C=C1\C(=O)C(O)C(C(C)C)=C2C=C(C)C(c3c(C)cc4c(C(C)C)c(O)c(O)c(C=N[C@H](C(=O)O)[C@@H](C)CC)c4c3O)=C(O)C21)C(=O)O.[Na+].[Na+] | GHOST | MTT | 26.48 µM |
| COc1cc(C(F)(F)F)ccc1C(=O)N[C@H]1N=C(c2ccccc2)c2ccccc2NC1=O | HEP-2 |  | 2.7 µM |
| O[C@@H]1[C@@H](OCc2ccccc2)[C@@H](COCc2ccccc2)O[C@H]1n1cnc2cc(Cl)c(Cl)cc21 | E6SM |  | 40 µg/mL |
| Nc1ncnc2c1ncn2[C@H]1C[C@@H](O)[C@@H](CO)O1 | PRK/E6SM |  | >400 µg/mL |
| Nc1ncnc2c1ncn2CCOCP(=O)(O)O | Primary duck hepatocytes |  | >100 µM |
| CC1=CC2=C(C(C)C)C(O)C(=O)/C(=C\NC(C)(C)C(=O)O)C2C(O)=C1c1c(C)cc2c(C(C)C)c(O)c(O)c(C=NC(C)(C)C(=O)O)c2c1O.[Na+].[Na+] | GHOST | MTT | 53.27 µM |
| Nc1ncnc2c1ncn2[C@@H]1C[C@@H](O)[C@H](CO)O1 | 2.2.15 |  | >1000 µM |
| CC1=NN=C(C)C2C=C([N+](=O)[O-])C=C12 | MOUSE EMT6 |  | 39.7 µM |
| CC1=CC2=C(C(C)C)C(O)C(=O)/C(=C\N[C@@H](C(=O)O)C(C)C)C2C(O)=C1c1c(C)cc2c(C(C)C)c(O)c(O)c(C=N[C@H](C(=O)O)C(C)C)c2c1O.[Na+].[Na+] | GHOST X4/R5 | MTT | 44.3 µM |

Repeating the final 5 entries:

compound	cell line	read by	value
Nc1ncnc2c1ncn2CCOCP(=O)(O)O	Primary duck hepatocytes		>100 µM
CC1=CC2=C(C(C)C)C(O)C(=O)/C(=C\NC(C)(C)C(=O)O)C2C(O)=C1c1c(C)cc2c(C(C)C)c(O)c(O)c(C=NC(C)(C)C(=O)O)c2c1O.[Na+].[Na+]	GHOST	MTT	53.27 µM
Nc1ncnc2c1ncn2[C@@H]1C[C@@H](O)[C@H](CO)O1	2.2.15		>1000 µM
CC1=NN=C(C)C2C=C([N+](=O)[O-])C=C12	MOUSE EMT6		39.7 µM
CC1=CC2=C(C(C)C)C(O)C(=O)/C(=C\N[C@@H](C(=O)O)C(C)C)C2C(O)=C1c1c(C)cc2c(C(C)C)c(O)c(O)c(C=N[C@H](C(=O)O)C(C)C)c2c1O.[Na+].[Na+]	GHOST X4/R5	MTT	44.3 µM